Measurements published in patent US10149812B2.

Chains of the proteins cited; added tags and fusions are not shown.
UniProt P15390, whole entry: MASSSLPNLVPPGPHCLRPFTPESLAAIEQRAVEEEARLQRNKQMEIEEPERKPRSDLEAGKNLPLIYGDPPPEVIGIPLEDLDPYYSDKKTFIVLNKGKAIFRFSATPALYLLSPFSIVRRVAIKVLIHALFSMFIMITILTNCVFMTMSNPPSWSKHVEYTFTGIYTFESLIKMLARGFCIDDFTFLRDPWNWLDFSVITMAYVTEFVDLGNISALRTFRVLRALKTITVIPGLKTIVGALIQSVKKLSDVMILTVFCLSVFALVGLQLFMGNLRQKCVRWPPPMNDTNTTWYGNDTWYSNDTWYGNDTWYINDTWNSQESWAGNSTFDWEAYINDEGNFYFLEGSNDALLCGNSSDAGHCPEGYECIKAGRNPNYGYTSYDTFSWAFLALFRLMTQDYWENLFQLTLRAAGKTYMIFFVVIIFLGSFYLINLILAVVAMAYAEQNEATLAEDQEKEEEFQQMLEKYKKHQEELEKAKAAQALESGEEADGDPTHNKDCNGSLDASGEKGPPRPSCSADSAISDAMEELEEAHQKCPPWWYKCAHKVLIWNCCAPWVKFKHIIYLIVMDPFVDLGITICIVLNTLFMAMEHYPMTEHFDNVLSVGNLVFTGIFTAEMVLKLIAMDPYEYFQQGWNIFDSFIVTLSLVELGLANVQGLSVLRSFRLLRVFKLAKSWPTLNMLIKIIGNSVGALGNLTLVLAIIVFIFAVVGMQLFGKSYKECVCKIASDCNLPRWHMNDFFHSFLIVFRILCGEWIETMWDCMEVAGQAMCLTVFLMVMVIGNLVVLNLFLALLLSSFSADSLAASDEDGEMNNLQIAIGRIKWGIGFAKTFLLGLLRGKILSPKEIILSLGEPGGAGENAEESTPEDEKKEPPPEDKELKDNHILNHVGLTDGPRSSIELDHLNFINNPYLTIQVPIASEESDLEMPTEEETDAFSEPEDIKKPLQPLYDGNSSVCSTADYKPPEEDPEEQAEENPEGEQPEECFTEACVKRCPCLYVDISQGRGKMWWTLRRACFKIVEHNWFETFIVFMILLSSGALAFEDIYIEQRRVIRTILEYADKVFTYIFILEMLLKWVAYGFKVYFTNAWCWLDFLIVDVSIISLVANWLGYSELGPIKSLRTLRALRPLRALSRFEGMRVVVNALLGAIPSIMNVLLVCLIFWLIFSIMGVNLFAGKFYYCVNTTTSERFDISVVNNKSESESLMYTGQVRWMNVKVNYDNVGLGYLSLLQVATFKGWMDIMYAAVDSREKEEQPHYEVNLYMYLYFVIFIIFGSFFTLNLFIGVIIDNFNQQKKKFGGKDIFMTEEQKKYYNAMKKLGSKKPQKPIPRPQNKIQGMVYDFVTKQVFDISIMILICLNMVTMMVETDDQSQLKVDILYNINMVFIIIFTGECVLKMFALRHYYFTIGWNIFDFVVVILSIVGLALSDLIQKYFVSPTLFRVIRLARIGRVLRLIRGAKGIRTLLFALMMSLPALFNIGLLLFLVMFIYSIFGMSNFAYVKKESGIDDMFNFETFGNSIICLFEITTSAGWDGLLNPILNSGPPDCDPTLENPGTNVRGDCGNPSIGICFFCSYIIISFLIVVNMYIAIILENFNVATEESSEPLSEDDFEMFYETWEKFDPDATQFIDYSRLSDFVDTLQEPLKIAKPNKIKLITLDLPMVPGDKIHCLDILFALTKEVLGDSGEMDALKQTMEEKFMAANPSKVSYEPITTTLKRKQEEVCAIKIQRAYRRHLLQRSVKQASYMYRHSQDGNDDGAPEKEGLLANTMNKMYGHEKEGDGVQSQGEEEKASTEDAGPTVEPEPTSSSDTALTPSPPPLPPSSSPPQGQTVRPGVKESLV

What was measured:
crow's foot wrinkles = assay: In vivo clinical evaluation by one expert of main wrinkle depth (modified Bazin's scale); details: T+14 days
[1] = target: rat skeletal muscle Na channel a subunit (μ1, Nav1.4) (Rattus norvegicus, UniProt P15390); assay: Whole-cell patch-clamp sodium current recordings in HEK 293 cells stably expressing Nav1.4
[2] = system: crow's feet and forehead wrinkles; assay: Quantification of the anti-wrinkles effect on humans, in vivo fringe projection, double-blind active versus placebo; details: composition 0.6 mg/kg, topical

“pGlu-Gly-Cys-Cys-Asn-Gly-Pro-Lys-Gly-Cys-Ser-Ser-Lys-Trp-Cys-Arg-Asp-His-Ala-Arg-Cys-Cys-amide” was tested, and the “CFW-Gr C14 (crow's foot wrinkle grade, scale 0 to 8)” value (crow's foot wrinkles; Mean, CnIIIC 2.5 μM 2 times/day, T0 mean 4.291) was 4.055, the “CFW-Gr CdT (evolution of grade score Tn-T0)” value (crow's foot wrinkles; Mean, CnIIIC 2.5 μM 2 times/day, grade out of 8) was −0.236 and the “CFW-Gr CdT (evolution of grade score Tn-T0)” value (crow's foot wrinkles; Median) was −0.200. For the same substance, the “CFW-Gr C14 (crow's foot wrinkle grade, scale 0 to 8)” value (crow's foot wrinkles; Median, T0 median 4.400) was 4.400, the “subjects showing an improvement in the crow's foot wrinkles grade” value (crow's foot wrinkles; 6 subjects out of 11) was 55 % of the panel and the “remaining sodium flux through expressed Nav1.4 channels” value ([1]; 1 microM) was “less than 4%”. The “Onsets (Block of NaV1.4 at 1 microM)” value ([1]; HEK 293 cells expressing Nav1.4, mean) was 266 and the “reduction against placebo for SA parameters” value [2] was “more than 8%”.
